A mixed list of measured activities; the numbers were collected in NIAID ChemDB.

Common to all: whole-cell or culture tests; organism: Plasmodium falciparum; measure: EC50

Neighbouring rows are from separate reports.

O=C(CN1C(=O)SC(=Cc2ccc(F)c(F)c2)C1=O)N1CCN(c2ccccc2)CC1 ; read by: fluorescence ; strain or isolate: W2 ; mutations: Chloroquine-resistant ; result: >10 µM
CC1CCN(CCCCOc2ccc(C(=O)c3ccccc3)cc2)CC1 ; read by: flow cytometry ; strain or isolate: 3D7 ; cells: Erythrocytes ; result: >14.8 µM
COc1cc(OC)c(C=C2SC(=O)N(Cc3ccc(C)cc3)C2=O)c(OC)c1 ; read by: fluorescence ; strain or isolate: W2 ; mutations: Chloroquine-resistant ; result: 8.88 µM
C[C@@H]1CC[C@H]2[C@@H](C)C(=O)O[C@@H]3OC4(C)CC[C@@H]1[C@]32OO4 ; read by: SYBR Green / fluorescence ; strain or isolate: KAE609R-3 ; mutations: KAE609-resistant pfatp4 D1247Y ; result: 0.0103 µM
c1ccc(Cc2ccccc2OCCCCn2cccc2)cc1 ; read by: flow cytometry ; strain or isolate: K1 ; cells: Erythrocytes ; result: >20.5 µM
C[C@H]1[C@@H](OC(=O)CCC(=O)O)O[C@@H]2O[C@@]3(C)CC[C@H]4[C@H](C)CC[C@@H]1[C@@]24OO3 ; read by: broth dilution / radiometric ; strain or isolate: W2 ; cells: human red blood cells ; result: 0.003 µM
O=C(CN1C(=O)SC(=Cc2ccc(F)cc2)C1=O)N1CCN(c2ccccc2)CC1 ; read by: fluorescence ; strain or isolate: W2 ; mutations: Chloroquine-resistant ; result: >10 µM
C[C@@H]1CC[C@H]2[C@@H](C)C(=O)O[C@@H]3OC4(C)CC[C@@H]1[C@]32OO4 ; read by: LDH ; strain or isolate: FCR3 ; cells: Erythrocyte ; result: 0.006 µg/mL
CCCCN(CCCC)CC(O)COc1cccc2ccccc12 ; read by: flow cytometry ; strain or isolate: 3D7 ; cells: Erythrocytes ; result: 1.55 µM
C[C@@H]1CC[C@H]2[C@@H](C)C(=O)O[C@@H]3OC4(C)CC[C@@H]1[C@]32OO4 ; read by: LDH / absorbance ; strain or isolate: W2 ; result: 0.0034 µg/mL
c1ccc(-c2ccccc2OCCCCN2CCCCC2)cc1 ; read by: flow cytometry ; strain or isolate: 3D7 ; cells: Erythrocytes ; result: >13.5 µM
O=C(O)c1cccc(C=C2SC(=O)N(CC(=O)N3CCN(c4ccccc4)CC3)C2=O)c1 ; read by: fluorescence ; strain or isolate: W2 ; mutations: Chloroquine-resistant ; result: >10 µM
CC(C)(c1ccccc1)c1ccc(OCCCn2ccnc2)cc1 ; read by: flow cytometry ; strain or isolate: 3D7 ; cells: Erythrocytes ; result: 5.38 µM
C[C@@H]1CC[C@H]2[C@@H](C)C(=O)O[C@@H]3OC4(C)CC[C@@H]1[C@]32OO4 ; read by: broth dilution / radiometric ; strain or isolate: FCM29 ; cells: human red blood cells ; result: 0.0125 µM
O=C(CN1C(=O)SC(=Cc2cc(C(F)(F)F)ccc2C(F)(F)F)C1=O)N1CCN(c2ccccc2)CC1 ; read by: fluorescence ; strain or isolate: W2 ; mutations: Chloroquine-resistant ; result: >10 µM

ECn is the concentration giving n% inhibition of infection, replication or growth.